Data on 1 molecule can be found in article PMC11870435 (2025).

The term Kd denotes the equilibrium constant for the complex coming apart. High values mean a looser complex, low ones a tighter complex.

This test deals with H1SI06_Head wildtype (hemagglutinin head domain of A/Solomon Islands/3/2006(H1N1)) (Influenza A virus A/Solomon …, UniProt A7Y8I1). Kind of test: SPR. Background: SPR reads the build-up and loss of mass on a sensor chip optically.

B1: FluA20 IgG (HA trimer interface-specific antibody) (antibody, V domains shown)
VH: QVQLEESGPGLVKPSETLSLTCSVSGVSVTSDIYYWTWIRQPPGKGLEWIGYIFYNGDTNYNPSLKSRVTMSIDTSKNEFSLRLTSVTAADTAVYFCARGTEDLGYCSSGSCPNHWGQGTLVTVSS
VL: DIVMTQSPSSLSASIGDRVTITCRPSQNIRSFLNWFQHKPGKAPKLLIYAASNLQSGVPSRFSGSGSGTEFTLTIRSLQPEDFATYYCQQSYNTPPTFGQGTKVEIK
The molecule B1 came in with a Kd of 0.012 µM.
